Pooled drug test results. Numbers come from NIAID ChemDB, via PubChem.

Common to all: tests in culture; agent: HIV-1; cell line: CEM; endpoint: inhibition

Neighbouring rows are from separate reports. An empty or dashed field is not shown. Percent inhibition refers to the dose given; in toxicity tests it is the harm to the cells.

smiles	strain or isolate	read by	conditions	tested at	value
COc1ccc(/C=N/N=C(/N)NO)cc1OC	IIIB	cytopathic effect	-	10 µg/mL	33%
O=C1NC(=S)NNC12c1ccccc1-c1ccccc12	-	cytopathic effect / XTT	-	200 µM	12.89%
Fc1cccc(C2ON=C(c3ccccc3)N2C23CC4CC(CC(C4)C2)C3)c1	-	cytopathic effect / XTT	-	6.3 µM	34.45%
CCOP(=O)(CCCC(O)n1cc(-n2c[n+](C)c(=O)[nH]c2=O)nn1)OCC	IIIB	-	-	100 µM	0%
Cc1cc(=O)c2c(O)c3c(O)cc(O)c4c5c(O)cc(O)c6c(O)c7c(=O)cc(C)c8c1c2c(c34)c(c65)c78	-	ELISA	14 d	1 µg/mL	97%
O=C(O)CSC1=NNC2(C(=O)N1)c1ccccc1-c1ccccc12	RF	cytopathic effect / XTT	-	63 µM	21.96%
CCOP(=O)(OCC)C(O)n1cc(N2C=CC(NC(C)=O)NC2=O)nn1	IIIB	-	-	100 µM	0%
COc1ccc(/C=N/N=C(\N)NO)cc1O.Cc1ccc(S(=O)(=O)O)cc1	IIIB	cytopathic effect	-	32 µg/mL	62%
CCCCCCCCCCCCC(Br)C(=O)OC[C@H]1O[C@@H](n2cc(C)c(=O)[nH]c2=O)CC1O	-	cytopathic effect / XTT	-	20 µM	9.9%
CC(C)CN(C[C@@H](O)[C@H](Cc1ccccc1)NC(=O)O[C@H]1CCOC1)S(=O)(=O)c1ccc(O)c(N)c1	IIIB	p24	-	0.1 µM	90%
CC1=NN2C(=N)CC(=O)N=C2N=C1/C=C/c1ccc(N(C)C)cc1	-	cytopathic effect / XTT	-	0.634 µM	6.7%
CCCCCCCCCCCCCCCCOP(=O)(OCCO[C@@H]1O[C@H](CO)[C@@H](O)[C@H](O)[C@@H]1O)OC[C@H]1O[C@@H](n2cc(C)c(=O)[nH]c2=O)C[C@@H]1N=[N+]=[N-]	LAV-Bru	RT activity	15 d	0.2 µM	87%
O=C(O)CSC1=NNC2(C(=O)N1)c1ccccc1-c1ccccc12	-	cytopathic effect / XTT	-	63 µM	21.96%
Cc1cn([C@H]2C[C@H](NC=O)[C@@H](CO)O2)c(=O)[nH]c1=O	LAV	cytopathic effect	-	100 µM	0%
COc1cc(/C=N/N=C(\N)NO)c(Cl)cc1O.Cc1ccc(S(=O)(=O)O)cc1	IIIB	cytopathic effect	-	32 µg/mL	23.8%
CC(=O)NC1C=CN(c2cn(C(O)CP(=O)(O)O)nn2)C(=O)N1	IIIB	-	-	100 µM	0%
C=CCNC(=O)NC1=CSC2=NC(=O)C3(NN12)c1ccccc1-c1ccccc13	-	cytopathic effect / XTT	-	20 µM	12.38%
C[n+]1cn(-c2cn(C(O)CCCP(=O)(O)O)nn2)c(=O)[nH]c1=O	IIIB	-	-	100 µM	0%
O=P(O)(O)OP(=O)(O)OP(=O)(O)O	IIIB	cytopathic effect / MTT	-	100 µg/mL	2.4%
CCOP(=O)(Cn1cc(-n2ccc(=O)[nH]c2=O)nn1)OCC	IIIB	-	-	100 µM	0%
[N-]=[N+]=NCCCCCCCCCCC(=O)O	-	cytopathic effect	-	10 µg/mL	35%
N[C@H]1CONC1=O	N1T	p24	-	2.5 µg/mL	68%
COc1ccc(/C=N/N=C(\N)NO)c(Cl)c1O.Cc1ccc(S(=O)(=O)O)cc1	IIIB	cytopathic effect	-	10 µg/mL	96%
Cc1nnc(N)nc1/C=C/c1ccc(Cl)cc1Cl	-	cytopathic effect / XTT	-	6.33 µM	2.28%
N#CC1CCCN1C(=O)C(Cc1ccccc1)NC(=O)OCC1c2ccccc2-c2ccccc21	IIIB	p24	-	12 µM	17.1%
Cc1nnc(N)nc1/C=C/c1cccs1	-	cytopathic effect / XTT	-	0.00635 µM	1.52%
N/C(=N\N=C\c1cccc(F)c1)NO	IIIB	cytopathic effect	-	10 µg/mL	18%
O=C(O)C(SC1=NNC2(C(=O)N1)c1ccccc1-c1ccccc12)SC1=NNC2(C(=O)N1)c1ccccc1-c1ccccc12	RF	cytopathic effect / XTT	-	20 µM	36.96%
Cc1cn([C@H]2CC[C@@H](CO)O2)c(=O)n(N)c1=O	LAV	cytopathic effect	-	100 µM	0%
Cc1cn([C@H]2C[C@H](O)[C@@H](COC(=O)CCCCCCCCCCBr)O2)c(=O)[nH]c1=O	-	cytopathic effect / XTT	-	52 µM	8.6%
COc1cc(/C=N/N=C(\N)NO)c([N+](=O)[O-])cc1OC	IIIB	cytopathic effect	-	10 µg/mL	3%
CCCCCCCCCCCCC(N=[N+]=[N-])C(=O)OC[C@H]1O[C@@H](n2cc(C)c(=O)[nH]c2=O)C[C@@H]1O	-	cytopathic effect / XTT	-	20 µM	10.9%
O=C1N=C2SC=C(NC(=S)Nc3ccccc3)N2NC12c1ccccc1-c1ccccc12	-	cytopathic effect / XTT	-	20 µM	36.36%
CCCCCC(=O)NCCCCCCC(=O)O	-	cytopathic effect	-	10 µg/mL	1%
CCCCCCCCCCCCCC(=O)OC[C@H]1O[C@@H](n2cc(C)c(=O)[nH]c2=O)C[C@@H]1O	-	cytopathic effect / XTT	-	2 µM	13.7%
Cc1cn([C@H]2C[C@H](N=[N+]=[N-])[C@@H](COP(=O)(O)OCCO[C@H]3O[C@H](CO)[C@@H](O)[C@H](O)[C@@H]3O)O2)c(=O)[nH]c1=O	LAV-Bru	RT activity	26 d	25 µM	89%
O=C(CSC1=NNC2(C(=O)N1)c1ccccc1-c1ccccc12)NC(=S)Nc1ccccc1	-	cytopathic effect / XTT	-	6.3 µM	21.65%
O=c1ccn(-c2cn(C(O)CP(=O)(O)O)nn2)c(=O)[nH]1	IIIB	-	-	100 µM	0%
O=C1N=C2SC=C(NC(=S)Nc3ccccc3)N2NC12c1ccccc1-c1ccccc12	RF	cytopathic effect / XTT	-	20 µM	36.63%
CC(=O)NC1C=CN(c2cn(CCP(=O)(O)O)nn2)C(=O)N1	IIIB	-	-	100 µM	0%
O=C1NC(=S)NNC12c1ccccc1-c1ccccc12	RF	cytopathic effect / XTT	-	200 µM	12.89%
O=C(O)CCCCCCCCCCCn1cnnn1	RF	cytopathic effect	-	10 µg/mL	65%
[C-]#[N+][C@H]1C[C@H](n2cc(C)c(=O)[nH]c2=O)O[C@@H]1CO	LAV	cytopathic effect	-	100 µM	0%
O=C1NC(SC(SC2=NNC3(C(=O)N2)c2ccccc2-c2ccccc23)=C(SC2=NNC3(C(=O)N2)c2ccccc2-c2ccccc23)SC2=NNC3(C(=O)N2)c2ccccc2-c2ccccc23)=NNC12c1ccccc1-c1ccccc12	RF	cytopathic effect / XTT	-	63 µM	37.76%

The first 3 rows once more:

smiles | strain or isolate | read by | conditions | tested at | value
COc1ccc(/C=N/N=C(/N)NO)cc1OC | IIIB | cytopathic effect | - | 10 µg/mL | 33%
O=C1NC(=S)NNC12c1ccccc1-c1ccccc12 | - | cytopathic effect / XTT | - | 200 µM | 12.89%
Fc1cccc(C2ON=C(c3ccccc3)N2C23CC4CC(CC(C4)C2)C3)c1 | - | cytopathic effect / XTT | - | 6.3 µM | 34.45%